Measured values from several laboratories, pooled; numbers as filed in NIAID ChemDB.

Shared fields: tests in culture; species: Influenza A virus; cell line: MDCK; read-out: EC50

Two numbers with a dash give a range or band.

{"SMILES": "CN(C)C(=O)COC(=O)Cc1ccc(OC(=O)c2ccc(N=C(N)N)cc2)cc1.COS(=O)(=O)O", "strain or isolate": "Influenza A/Ishikawa/7/82 (H3N2)", "read by": "cytopathic effect", "value": "2.2 µg/mL"}
{"SMILES": "Nc1nc2c(ncn2[C@@H]2O[C@H](CO)[C@@H](O)[C@H]2F)c(=O)[nH]1", "strain or isolate": "H3N2 A/HONG KONG/1/68", "read by": "plaque count", "value": "10 µM"}
{"SMILES": "CCOC(=O)c1ccc(OC(=O)CCCCCN=C(N)N)cc1.COS(=O)(=O)O", "strain or isolate": "Influenza A/Ishikawa/7/82 (H3N2)", "read by": "cytopathic effect", "value": "230 µg/mL"}
{"SMILES": "CC1=C(C)C2C(N)C1CCC2(C)C", "read by": "plaque count", "value": ">20 µM"}
{"SMILES": "CC=NC(=N)c1nc(-c2cccc(OC)c2)n(COCCO)n1", "strain or isolate": "Ishikawa", "read by": "cytopathic effect", "value": ">200 µg/mL"}
{"SMILES": "C[C@@H]1CC[C@@H]2CCCC[C@@H]2N1CCNC(=O)c1cc(Cl)ccc1O", "strain or isolate": "H1N1 A/WSN/33 (H1N1)", "read by": "plaque count", "value": "0.09 µg/mL"}
{"SMILES": "CC(O)CCCCCC(CCCCCCCCCCCCCC1CC(=O)OC[C@H]2O[C@@H](OC(CCCCCCCCCCCC(CCCCCC(C)O)O[C@@H]3O[C@H](CO)[C@@H](O)[C@H](O)[C@H]3O)CC(=O)OC[C@@H]3O[C@H](O1)[C@@H](O)[C@H](O)[C@H]3O)[C@H](O)[C@@H](O)[C@@H]2O)O[C@@H]1O[C@H](CO)[C@@H](O)[C@H](O)[C@H]1O", "strain or isolate": "H1N1", "read by": "cytopathic effect", "value": "1.9 µg/mL"}
{"SMILES": "C=C(N=CC)c1nc(-c2ccccc2)n([C@@H]2O[C@H](CO)[C@@H](O)[C@H]2O)n1", "strain or isolate": "Ishikawa", "read by": "cytopathic effect", "value": ">200 µg/mL"}
{"SMILES": "CC(O)C1(CNc2cc(Cl)nc(N)n2)CCC1", "strain or isolate": "H1N1 A/PR/8/34", "read by": "plaque count", "value": "180 µM"}
{"SMILES": "Cc1ccc(O)c(C(=O)N[C@@H]2CCC34CCC3N(C(C)C)C4C2)c1", "strain or isolate": "H1N1 A/WSN/33 (H1N1)", "read by": "plaque count", "value": ">50 µg/mL"}
{"SMILES": "Nc1ncc(N)c(NCC2(CO)CC(Cc3ccccc3)C2)n1", "strain or isolate": "H1N1 A/PR/8/34", "read by": "plaque count", "value": "5.7–18 µM"}
{"SMILES": "CC(=O)N[C@H]1[C@H]([C@H](O)[C@H](O)CO)OC(C(=O)O)=C[C@@H]1N=C(N)N", "strain or isolate": "Influenza A/Shandong/09/03 (H3N2)", "read by": "cytopathic effect", "value": "0.043 µM"}
{"SMILES": "Nc1ccn([C@@H]2C[C@H](CO)[C@@H](O)[C@H]2O)c(=O)n1", "read by": "cytopathic effect", "value": "4.5 µg/mL"}
{"SMILES": "CC1(CO)CCC(Cn2nnc3c(=O)[nH]c(N)nc32)C1(C)C", "strain or isolate": "H3N2 X31", "read by": "cytopathic effect", "value": ">50 µg/mL"}
{"SMILES": "CCOC(=O)c1cc(NC(=O)c2ccccc2)c(=O)n2c1[nH]c1ccccc12", "strain or isolate": "Influenza A/Ishikawa/7/82 (H3N2)", "read by": "plaque count", "value": ">40 µg/mL"}
{"SMILES": "Nc1nc2c(nc(N)n2[C@@H]2O[C@H](CO)[C@@H](O)[C@H]2F)c(=O)[nH]1", "strain or isolate": "A/Sweden", "read by": "plaque count", "value": "17 µM"}
{"SMILES": "Cc1ccc(O)c(C(=O)NCCN2[C@@H](C)CC[C@@H]3CCCC[C@@H]32)c1", "strain or isolate": "H1N1 A/WSN/33 (H1N1)", "read by": "plaque count", "value": "6 µg/mL"}
{"SMILES": "C/C=C\\[C@@H]1C[C@H](C(=O)O)N[C@H]1[C@@H](NC(C)=O)[C@](C)(CCC)OC", "strain or isolate": "Influenza A H3N2 isolate C34C", "read by": "plaque count", "value": "≤0.03 µg/mL"}
{"SMILES": "CC1(CO)CCC(Cn2nnc3c(Cl)nc(N)nc32)C1(C)C", "strain or isolate": "H3N2 X31", "read by": "cytopathic effect", "value": ">50 µg/mL"}
{"SMILES": "Cc1ccc(O)c(C(=O)NCCCN2[C@H](C)CC[C@@H]3CCCC[C@@H]32)c1", "strain or isolate": "H1N1 A/WSN/33 (H1N1)", "read by": "plaque count", "value": ">50 µg/mL"}
{"SMILES": "CC(=O)c1cc(NC(=O)c2ccccc2)c(=O)n2c1[nH]c1ccccc12", "strain or isolate": "Influenza A/Ishikawa/7/82 (H3N2)", "read by": "plaque count", "value": ">40 µg/mL"}
{"SMILES": "Cc1ccc(O)c(C(=O)N[C@@H]2CCC34CCC3N(Cc3ccccc3)C4C2)c1", "strain or isolate": "H1N1 A/WSN/33 (H1N1)", "read by": "plaque count", "value": ">50 µg/mL"}
{"SMILES": "CCOC(=O)c1cc(C#N)c2[nH]c3ccccc3n2c1=O", "strain or isolate": "Influenza A/Ishikawa/7/82 (H3N2)", "read by": "plaque count", "value": ">40 µg/mL"}
{"SMILES": "O=C(NCCN1CCC[C@@H]2CCCC[C@@H]21)c1cc(Cl)ccc1O", "strain or isolate": "H1N1 A/WSN/33 (H1N1)", "read by": "plaque count", "value": "1.4 µg/mL"}
{"SMILES": "Nc1ccn([C@@H]2O[C@H](CO)[C@@H](O)[C@H]2F)c(=O)n1", "strain or isolate": "A/Sweden", "read by": "plaque count", "value": "2.6 µM"}
{"SMILES": "Nc1nc(Cl)c(C=O)c(NCC2(CO)CC(CCc3ccccc3)C2)n1", "strain or isolate": "H1N1 A/PR/8/34", "read by": "plaque count", "value": "6.7–8 µM"}
{"SMILES": "CC=NC(=N)c1nc(-c2ccccc2)n(Cc2ccccc2)n1", "strain or isolate": "Ishikawa", "read by": "cytopathic effect", "value": ">20 µg/mL"}
{"SMILES": "N#Cc1cc(NC(=O)c2ccccc2)c(=O)n2c1[nH]c1ccccc12", "strain or isolate": "Influenza A/Ishikawa/7/82 (H3N2)", "read by": "plaque count", "value": "2 µg/mL"}
{"SMILES": "Nc1ncc(N)c(NCC2(CO)CC(CCc3ccccc3)C2)n1", "strain or isolate": "H1N1 A/PR/8/34", "read by": "plaque count", "value": "11–20 µM"}
{"SMILES": "CC(C)[C@H]1CCC2C(N)C1[C@@H](C)[C@H]2C", "read by": "plaque count", "value": "33 µM"}
{"SMILES": "CC(C)N1C2CCC23CC[C@H](NC(=O)c2cc(Cl)ccc2O)CC13", "strain or isolate": "H1N1 A/WSN/33 (H1N1)", "read by": "plaque count", "value": ">50 µg/mL"}
{"SMILES": "CC(=O)N[C@H]1[C@H]([C@H](O)[C@H](O)CO)OC(C(=O)O)=C[C@@H]1N=C(N)N", "strain or isolate": "Influenza A/Sydney/05/97 (H3N2)", "read by": "neutral red / visual reading", "value": "0.033 µM"}
{"SMILES": "CC(N)C12CC3CC(CC(C3)C1)C2", "strain or isolate": "Influenza A H3N2 isolate 296", "read by": "ELISA", "value": "9 µg/mL"}
{"SMILES": "CC=NC(=N)c1nc(-c2cccc(C)c2)n(Cc2ccccc2)n1", "strain or isolate": "Ishikawa", "read by": "cytopathic effect", "value": ">20 µg/mL"}
{"SMILES": "COS(=O)(=O)O.N=C(N)c1ccc2cc(OC(=O)c3ccc(N=C(N)N)cc3)ccc2c1", "strain or isolate": "B/Singapore/222/79", "read by": "cytopathic effect", "value": "1.5 µg/mL"}
{"SMILES": "CC[C@@H]1C2CCCC(C2N)[C@@H]1CC", "read by": "plaque count", "value": ">100 µM"}
{"SMILES": "C=C(N=CC)c1nc(-c2cccc(OC)c2)n(C2O[C@H](CO)[C@@H](O)[C@H](O)[C@H]2O)n1", "strain or isolate": "Ishikawa", "read by": "cytopathic effect", "value": ">200 µg/mL"}
{"SMILES": "CC1(CO)CCC(Cn2cnc3c(=O)[nH]c(N)nc32)C1(C)C", "strain or isolate": "H3N2 X31", "read by": "cytopathic effect", "value": ">50 µg/mL"}
{"SMILES": "N#Cc1cc(C#N)c2[nH]c3ccccc3n2c1=O", "strain or isolate": "A/Bangkok", "read by": "plaque count", "value": "70 µg/mL"}
{"SMILES": "NC1C2CCCC1CC2", "read by": "plaque count", "value": "30.1 µM"}
{"SMILES": "Cc1ccc(C2NC(=O)C3NC(=O)C(c4cc(O)cc(O)c4)NC(=O)C(NC(=O)C(N)Cc4ccc(O)cc4)Cc4c[nH]c5cc(ccc45)-c4cc3cc(c4O)Oc3ccc(cc3)CC(C(=O)NC(C(=O)O)c3ccc(O)c(O)c3)NC2=O)cc1Cl", "strain or isolate": "A/Victoria", "value": "3.6 µg/mL"}
{"SMILES": "CC1=C(C)C2CCCC1C2N", "read by": "plaque count", "value": "12.5 µM"}
{"SMILES": "O=c1ccn([C@@H]2O[C@H](CO)[C@@H](O)[C@H]2F)c(=O)[nH]1", "strain or isolate": "A/Sweden", "read by": "plaque count", "value": ">100 µM"}
{"SMILES": "C=C(N=CC)c1nc(-c2cccc(C)c2)n(C2O[C@H](CO)[C@@H](O)[C@H](O)[C@H]2O)n1", "strain or isolate": "Ishikawa", "read by": "cytopathic effect", "value": ">200 µg/mL"}
{"SMILES": "CC(=O)N[C@H]1[C@H]([C@H](O)[C@H](O)CO)OC(C(=O)O)=C[C@@H]1N=C(N)N", "strain or isolate": "Influenza A/Beijing/32/92 (H3N2)", "read by": "visual reading", "value": "0.3 µM"}
{"SMILES": "CC1=C(c2ccccc2)C2CCCC1C2N", "read by": "plaque count", "value": ">25 µM"}

Again, the opening 3 rows:

CN(C)C(=O)COC(=O)Cc1ccc(OC(=O)c2ccc(N=C(N)N)cc2)cc1.COS(=O)(=O)O ; strain or isolate: Influenza A/Ishikawa/7/82 (H3N2) ; read by: cytopathic effect ; value: 2.2 µg/mL
Nc1nc2c(ncn2[C@@H]2O[C@H](CO)[C@@H](O)[C@H]2F)c(=O)[nH]1 ; strain or isolate: H3N2 A/HONG KONG/1/68 ; read by: plaque count ; value: 10 µM
CCOC(=O)c1ccc(OC(=O)CCCCCN=C(N)N)cc1.COS(=O)(=O)O ; strain or isolate: Influenza A/Ishikawa/7/82 (H3N2) ; read by: cytopathic effect ; value: 230 µg/mL

Lines come from different laboratories, so protocols vary. ECn: concentration that inhibits the pathogen or its effect by n%.